Where two headings read alike, the source gives them in different places.
Experiments:
Experiment in all cases: cell-based or functional assay
[1] = molecular target: HIV-1 envelope glycoprotein gp120 of virus 8106 (HIV-1)
[2] = molecular target: HIV-1 envelope glycoprotein gp120 of virus CH106 (HIV-1)
[3] = molecular target: HIV-1 envelope glycoprotein gp120 of virus 1413 (HIV-1)
[4] = molecular target: HIV-1 envelope glycoprotein gp120 of virus 8089 (HIV-1)
[5] = molecular target: HIV-1 envelope glycoprotein gp120 of virus 1003 (HIV-1)
[6] = molecular target: HIV-1 envelope glycoprotein gp120 of virus 8320 (HIV-1)
[7] = molecular target: HIV-1 envelope glycoprotein gp120 of virus 7552 (HIV-1)
[8] = molecular target: HIV-1 envelope glycoprotein gp120 of virus 8318 (HIV-1)
[9] = molecular target: HIV-1 envelope glycoprotein gp120 of virus THRO (HIV-1)
[10] = molecular target: HIV-1 envelope glycoprotein gp120 of virus 7015 (HIV-1)
[11] = molecular target: HIV-1 envelope glycoprotein gp120 of virus 302076 (HIV-1)
[12] = molecular target: HIV-1 envelope glycoprotein gp120 of virus 92US727 (HIV-1)
[13] = molecular target: HIV-1 envelope glycoprotein gp120 of virus 7103 (HIV-1)
[14] = molecular target: HIV-1 envelope glycoprotein gp120 of virus BaL (HIV-1)
[15] = molecular target: HIV-1 envelope glycoprotein gp120 of virus 8134 (HIV-1)
[16] = molecular target: HIV-1 envelope glycoprotein gp120 of virus 7714 (HIV-1)
[17] = molecular target: HIV-1 envelope glycoprotein gp120 of virus 7467 (HIV-1)
[18] = molecular target: HIV-1 envelope glycoprotein gp120 of virus 7051 (HIV-1)
[19] = molecular target: HIV-1 envelope glycoprotein gp120 of virus 92HT593 (HIV-1)
[20] = molecular target: HIV-1 envelope glycoprotein gp120 of virus 7576 (HIV-1)
[21] = molecular target: HIV-1 envelope glycoprotein gp120 of virus 8398 (HIV-1)
[22] = molecular target: HIV-1 envelope glycoprotein gp120 of virus 92US712 (HIV-1)
[23] = molecular target: HIV-1 envelope glycoprotein gp120 of virus 8110 (HIV-1)
[24] = molecular target: HIV-1 envelope glycoprotein gp120 of virus REJO (HIV-1)
[25] = molecular target: HIV-1 envelope glycoprotein gp120 of virus CH058 (HIV-1)
[26] = molecular target: HIV-1 envelope glycoprotein gp120 of virus 7406 (HIV-1)
[27] = molecular target: HIV-1 envelope glycoprotein gp120 of virus 8359 (HIV-1)
[28] = molecular target: HIV-1 envelope glycoprotein gp120 of virus 7595 (HIV-1)
[29] = molecular target: HIV-1 envelope glycoprotein gp120 of virus 8176 (HIV-1)
[30] = molecular target: HIV-1 envelope glycoprotein gp120 of virus 7007 (HIV-1)
[31] = molecular target: HIV-1 envelope glycoprotein of virus WITO (HIV-1)
[32] = molecular target: HIV-1 envelope glycoprotein gp120 of virus 8117 (HIV-1)
[33] = molecular target: HIV-1 envelope glycoprotein gp120 of virus RHPA (HIV-1)
[34] = molecular target: HIV-1 envelope glycoprotein gp120 of virus 1489 (HIV-1)
[35] = molecular target: HIV-1 envelope glycoprotein gp120 of virus 7141 (HIV-1)
[36] = molecular target: HIV-1 envelope glycoprotein gp120 of virus CH077 (HIV-1)
[37] = molecular target: HIV-1 envelope glycoprotein gp120 of virus 302076 (HIV-1); remark: listed apart in the source
[38] = molecular target: HIV-1 envelope glycoprotein gp120 of virus 92US727 (HIV-1); remark: listed apart in the source
[39] = molecular target: HIV-1 envelope glycoprotein gp120 of virus BaL (HIV-1); remark: listed apart in the source
[40] = molecular target: HIV-1 envelope glycoprotein gp120 of virus 92HT593 (HIV-1); remark: listed apart in the source
[41] = molecular target: HIV-1 envelope glycoprotein gp120 of virus 92US712 (HIV-1); remark: listed apart in the source
[42] = molecular target: HIV-1 envelope glycoprotein gp120 of virus 92US657 (HIV-1)
[43] = molecular target: HIV-1 envelope glycoprotein gp120 of virus 92US657 (HIV-1); remark: listed apart in the source

B1: Antibody 1.37.51-1 (antibody, human IgG1, kappa, V domains shown)
VH: QVQLVQSGAEVKKPGASVRVSCKASGYNIRDYFIHWWRQAPGQGLQWVGWINPKTGQPNNPRQFQGRVSLTRHASWDFDTYSFYMDLSRLRSDDTAVYFCARQRSDYWDFDVWGQGTMVTVSS
VL: DIQMTQSPSSLSASVGDRVTITCQANGYLNWYQQKPGKAPKLLIYDGSKLETGVPSRFSGSRWGQEYTLTINNLQPEDIATYFCQVYEFFGPGTRLDLKR
Virus Neutralization Potency [1]: 0.97 µg/mL | Virus Neutralization Potency [2]: 2.8 µg/mL | Virus Neutralization Potency [3]: 2.45 µg/mL | Virus Neutralization Potency [4]: 1.14 µg/mL | Virus Neutralization Potency [5]: 12.6 µg/mL | Virus Neutralization Potency [6]: 4.09 µg/mL | Virus Neutralization Potency [7]: > 200 µg/mL | Virus Neutralization Potency [8]: 0.37 µg/mL | Virus Neutralization Potency [9]: 1.28 µg/mL | Virus Neutralization Potency [10]: 0.1 µg/mL | Virus Neutralization Potency [11]: 0.06 µg/mL | Virus Neutralization Potency [12]: 50.3 µg/mL | Virus Neutralization Potency [13]: 2.28 µg/mL | Virus Neutralization Potency [14]: 0.82 µg/mL | Virus Neutralization Potency [15]: 6.97 µg/mL | Virus Neutralization Potency [16]: 4.33 µg/mL | Virus Neutralization Potency [17]: 0.06 µg/mL | Virus Neutralization Potency [18]: 0.49 µg/mL | Virus Neutralization Potency [19]: 0.12 µg/mL | Virus Neutralization Potency [20]: 0.34 µg/mL | Virus Neutralization Potency [21]: > 200 µg/mL | Virus Neutralization Potency [22]: 0.13 µg/mL | Virus Neutralization Potency [23]: 4.14 µg/mL | Virus Neutralization Potency [24]: 3.04 µg/mL | Virus Neutralization Potency [25]: 0.09 µg/mL | Virus Neutralization Potency [26]: > 200 µg/mL | Virus Neutralization Potency [27]: 1.51 µg/mL | Virus Neutralization Potency [28]: 16.2 µg/mL | Virus Neutralization Potency [29]: 0.18 µg/mL | Virus Neutralization Potency [30]: > 200 µg/mL | Virus Neutralization Potency [31]: 0.11 µg/mL | Virus Neutralization Potency [32]: 0.92 µg/mL | Virus Neutralization Potency [33]: 0.09 µg/mL | Virus Neutralization Potency [34]: 0.26 µg/mL | Virus Neutralization Potency [35]: 51 µg/mL | Virus Neutralization Potency [36]: 2.29 µg/mL | Virus Neutralization Potency [37]: 0.112 µg/mL | Virus Neutralization Potency [38]: > 20 µg/mL | Virus Neutralization Potency [39]: 0.053 µg/mL | Virus Neutralization Potency [40]: 0.014 µg/mL | Virus Neutralization Potency [41]: 0.149 µg/mL | Virus Neutralization Potency [42]: 2.58 µg/mL

B2: Antibody A-1 (antibody, human IgG1, kappa)
heavy: QVQLLQSGAAVTKPGASVRVSCEASGYNIRDYFIHWWRQAPGQGLQWVGWINPKTGQPNNPRQFQGRVSLTRHASWDFDTFSFYMDLKALRSDDTAVYFCARQRSDYWDFDVWGSGTQVTVSSASTKGPSVFPLAPSSKSTSGGTAALGCLVKDYFPEPVTVSWNSGALTSGVHTFPAVLQSSGLYSLSSVVTVPSSSLGTQTYICNVNHKPSNTKVDKKVEPKSCDKTHTCPPCPAPELLAGPDVFLFPPKPKDTLMISRTPEVTCVVVDVSHEDPEVKFNWYVDGVEVHNAKTKPREEQYNSTYRVVSVLTVLHQDWLNGKEYKCKVSNKALPLPEEKTISKAKGQPREPQVYTLPPSREEMTKNQVSLTCLVKGFYPSDIAVEWESNGQPENNYKTTPPVLDSDGSFFLYSKLTVDKSRWQQGNVFSCSVLHEALHSHYTQKSLSLSPGK
light: not shown
Virus Neutralization Potency [1]: 1.03 µg/mL | Virus Neutralization Potency [2]: 2.71 µg/mL | Virus Neutralization Potency [3]: 3.84 µg/mL | Virus Neutralization Potency [4]: 0.67 µg/mL | Virus Neutralization Potency [5]: 23 µg/mL | Virus Neutralization Potency [6]: 4.07 µg/mL | Virus Neutralization Potency [7]: > 200 µg/mL | Virus Neutralization Potency [8]: 0.38 µg/mL | Virus Neutralization Potency [9]: 3.1 µg/mL | Virus Neutralization Potency [10]: 0.14 µg/mL | Virus Neutralization Potency [11]: 0.1 µg/mL | Virus Neutralization Potency [12]: 1.82 µg/mL | Virus Neutralization Potency [13]: 4.82 µg/mL | Virus Neutralization Potency [14]: 0.15 µg/mL | Virus Neutralization Potency [15]: 5.08 µg/mL | Virus Neutralization Potency [16]: 8.96 µg/mL | Virus Neutralization Potency [17]: 0.07 µg/mL | Virus Neutralization Potency [18]: 0.61 µg/mL | Virus Neutralization Potency [19]: 0.12 µg/mL | Virus Neutralization Potency [20]: 0.46 µg/mL | Virus Neutralization Potency [21]: > 200 µg/mL | Virus Neutralization Potency [22]: 0.11 µg/mL | Virus Neutralization Potency [23]: 7.09 µg/mL | Virus Neutralization Potency [24]: 2.88 µg/mL | Virus Neutralization Potency [25]: 0.1 µg/mL | Virus Neutralization Potency [26]: > 200 µg/mL | Virus Neutralization Potency [27]: 1.56 µg/mL | Virus Neutralization Potency [28]: 24.6 µg/mL | Virus Neutralization Potency [29]: 0.28 µg/mL | Virus Neutralization Potency [30]: > 200 µg/mL | Virus Neutralization Potency [31]: 0.26 µg/mL | Virus Neutralization Potency [32]: 1.93 µg/mL | Virus Neutralization Potency [33]: 0.16 µg/mL | Virus Neutralization Potency [34]: 0.16 µg/mL | Virus Neutralization Potency [43]: 1.81 µg/mL | Virus Neutralization Potency [35]: 5.35 µg/mL | Virus Neutralization Potency [36]: 2.45 µg/mL | Virus Neutralization Potency [38]: 6.08 µg/mL | Virus Neutralization Potency [40]: 0.013 µg/mL | Virus Neutralization Potency [41]: 0.085 µg/mL | Virus Neutralization Potency [42]: 2.16 µg/mL

— patent US20220089698A1, “ANTIBODIES THAT TARGET HIV GP120 AND METHODS OF USE” (published 2022)
